Pooled drug test results. Numbers come from NIAID ChemDB, via PubChem.

All rows: target-level tests

ICn is the concentration giving n% inhibition.

SMILES,endpoint,protein,tested at,strain or isolate,species,result
C=CCOc1cc2c(C(=O)NC)c(-c3ccc(F)cc3)oc2cc1NCC,IC50,Nonstructural protein 5B,-,-,Hepatitis C virus,≤0.5 µM
CC(C)Nc1cccnc1N1CCN(C(=O)c2ccc(C(=O)NCCCn3ccnc3)cn2)CC1,IC50,Reverse transcriptase,-,-,Hepatitis B virus,0.001 µg/mL
COC(=O)[C@@H]1CCCN1c1nc(Nc2ccc3cn[nH]c3c2)nc(OC)n1,inhibition,DNA polymerase,0.1 µg/mL,-,Hepatitis B virus,20%
COc1ccc(-c2cnc3c(C(=O)O)cnn3c2C2CCCCC2)cc1,IC50,RNA-dependent RNA polymerase,-,-,Hepatitis C virus,1–10 µM
CNC(=O)c1c(-c2ccc(F)cc2)oc2cc(N3CCOCC3)c(OCc3cccc(C(=O)OC)c3)cc12,IC50,Nonstructural protein 5B,-,-,Hepatitis C virus,≤0.5 µM
COc1ccc(-c2nc3cc(C(=O)O)[nH]n3c(=O)c2-c2ccc(OC)cc2)cc1,IC50,RNA-dependent RNA polymerase,-,-,Hepatitis C virus,>10 µM
CC(C)CNc1cccnc1N1CCN(C(=O)c2ccc(C(=O)NC3CC3)cn2)CC1,IC50,Reverse transcriptase,-,-,Hepatitis B virus,0.002 µg/mL
COc1nc(NCCCn2ccnc2)nc(Nc2ccc3[nH]ncc3c2)n1,IC50,DNA polymerase,-,-,Hepatitis B virus,0.1–1 µg/mL
CC(C)Cc1c(-c2ccc(OCc3ccccc3)cc2)cnc2cc(C(=O)O)nn12,IC50,RNA-dependent RNA polymerase,-,-,Hepatitis C virus,>10 µM
CC(C)Nc1cccnc1N1CCN(C(=O)c2ccc(C(=O)NC(C)(C)C)cn2)CC1,IC50,Reverse transcriptase,-,-,Hepatitis B virus,0.002 µg/mL
CNC(=O)c1c(-c2ccc(F)cc2)oc2cc(N(CS(C)(=O)=O)OC)c(OCc3cccc(C#N)c3)cc12,IC50,Nonstructural protein 5B,-,-,Hepatitis C virus,≤0.5 µM
Cn1cc(CC(=O)Nc2cscc2-c2nc(C(=O)O)c(O)c(=O)[nH]2)c2ccccc21,IC50,HCV polymerase,-,-,Hepatitis C virus,<25 µM
CCNc1cccnc1N1CCN(C(=O)c2ccc(C(=O)NC(C)C)cn2)CC1,IC50,Reverse transcriptase,-,-,Hepatitis B virus,0.006 µg/mL
COc1nc(Nc2ccc3[nH]ncc3c2)nc(NN2CCOCC2)n1,inhibition,DNA polymerase,1 µg/mL,-,Hepatitis B virus,67%
Nc1ccn([C@H]2CS[C@@H](COP(=O)(O)OP(=O)(O)OP(=O)(O)O)O2)c(=O)n1,IC50,DNA polymerase,-,Polymerase mutant M550V,Hepatitis B virus,0.305 µM
CC(C)(C)OC(=O)NCCCCCC(=O)Nc1ccsc1-c1nc(C(=O)O)c(O)c(=O)[nH]1,IC50,HCV polymerase,-,-,Hepatitis C virus,<25 µM
O=C(N[C@@H](Cc1ccccc1)C(=O)O)c1cnn2c(C3CCCCC3)c(-c3ccc(F)cc3)cnc12,IC50,RNA-dependent RNA polymerase,-,-,Hepatitis C virus,1–10 µM
COCCNc1nc(Nc2ccc3cn[nH]c3c2)nc(OC)n1,IC50,DNA polymerase,-,-,Hepatitis B virus,<0.01 µg/mL
CCNc1cccnc1N1CCN(C(=O)c2ccc(C(=O)NCc3ccccn3)cn2)CC1,IC50,Reverse transcriptase,-,-,Hepatitis B virus,0.116 µg/mL
COc1nc(Nc2ccc3[nH]ncc3c2)nc(NC2CC2)n1,inhibition,DNA polymerase,1 µg/mL,-,Hepatitis B virus,43%
O=C(O)c1cc2nc(-c3cccc(Oc4ccccc4)c3)c(-c3ccccc3)cn2n1,IC50,RNA-dependent RNA polymerase,-,-,Hepatitis C virus,>10 µM
COc1nc(Nc2ccc3[nH]ncc3c2)nc(N2CCCC2)n1,inhibition,Nonstructural protein 5B,10 µg/mL,-,Hepatitis C virus,75%
COc1cc2c(C(=O)NC3CC3)c(-c3ccc(F)cc3)oc2cc1-c1c(C)noc1C,IC50,Nonstructural protein 5B,-,-,Hepatitis C virus,≤0.5 µM
CCOC(=O)C1=CN(N2CCN(c3nc(Nc4ccc5cn[nH]c5c4)nc(OC)n3)CC2)C(SC)N=C1,inhibition,DNA polymerase,0.01 µg/mL,-,Hepatitis B virus,4%
Nc1ccc(S(=O)(=O)Nc2ccccc2-c2nc(C(=O)O)c(O)c(=O)[nH]2)cc1Cl,IC50,HCV polymerase,-,-,Hepatitis C virus,<100 µM
COc1nc(NCCc2ccccn2)nc(Nc2ccc3cn[nH]c3c2)n1,inhibition,DNA polymerase,1 µg/mL,-,Hepatitis B virus,48%
COc1ccc(OC)c(CNC(=O)Nc2cscc2-c2nc(C(=O)O)c(O)c(=O)[nH]2)c1,IC50,HCV polymerase,-,-,Hepatitis C virus,<25 µM
CC(C)Nc1cccnc1N1CCN(C(=O)c2ccc(C(=O)NCCO)cn2)CC1,IC50,Reverse transcriptase,-,-,Hepatitis B virus,0.261 µg/mL
Cc1ccc(C(=O)Nc2ccsc2-c2nc(C(=O)O)c(O)c(=O)[nH]2)cc1Cl,IC50,HCV polymerase,-,-,Hepatitis C virus,<25 µM
COc1nc(NCCN2CCOCC2)nc(Nc2ccc3[nH]ncc3c2)n1,inhibition,DNA polymerase,1 µg/mL,-,Hepatitis B virus,73%
CNC(=O)c1c(-c2ccc(F)cc2)oc2cc(N(Cc3ccc(C(=O)O)cc3)S(C)(=O)=O)c(OC(C)C)cc12,IC50,Nonstructural protein 5B,-,-,Hepatitis C virus,≤0.5 µM
O=C(NCCN1CCN(C2CCCCC2)CC1)Nc1cscc1-c1nc(C(=O)O)c(O)c(=O)[nH]1,IC50,HCV polymerase,-,-,Hepatitis C virus,<25 µM
CNC(=O)c1c(-c2ccc(F)cc2)oc2cc(N(CS(C)(=O)=O)OC)c(O)cc12,IC50,Nonstructural protein 5B,-,-,Hepatitis C virus,≤0.5 µM
Cc1ccsc1CCOC(=O)Nc1ccsc1-c1nc(C(=O)O)c(O)c(=O)[nH]1,IC50,HCV polymerase,-,-,Hepatitis C virus,<25 µM

The last 5 rows once more:

SMILES | endpoint | protein | tested at | strain or isolate | species | result
COc1nc(NCCN2CCOCC2)nc(Nc2ccc3[nH]ncc3c2)n1 | inhibition | DNA polymerase | 1 µg/mL | - | Hepatitis B virus | 73%
CNC(=O)c1c(-c2ccc(F)cc2)oc2cc(N(Cc3ccc(C(=O)O)cc3)S(C)(=O)=O)c(OC(C)C)cc12 | IC50 | Nonstructural protein 5B | - | - | Hepatitis C virus | ≤0.5 µM
O=C(NCCN1CCN(C2CCCCC2)CC1)Nc1cscc1-c1nc(C(=O)O)c(O)c(=O)[nH]1 | IC50 | HCV polymerase | - | - | Hepatitis C virus | <25 µM
CNC(=O)c1c(-c2ccc(F)cc2)oc2cc(N(CS(C)(=O)=O)OC)c(O)cc12 | IC50 | Nonstructural protein 5B | - | - | Hepatitis C virus | ≤0.5 µM
Cc1ccsc1CCOC(=O)Nc1ccsc1-c1nc(C(=O)O)c(O)c(=O)[nH]1 | IC50 | HCV polymerase | - | - | Hepatitis C virus | <25 µM

Percent inhibition refers to the dose given; in toxicity tests it is the harm to the cells. a–b is a range or a potency band. Lines come from different laboratories, so protocols vary. An empty or dashed field is not shown.